Pooled drug test results. Numbers come from NIAID ChemDB, via PubChem.

Shared fields: whole-cell or culture tests; agent: HIV-2; strain: ROD; method: MTT; read-out: EC50

Lines come from different laboratories, so protocols vary.

structure	cell line	result
Nc1nc(-c2ccc(Br)cc2Br)c(SCC(=O)Nc2cccnc2Cl)s1	MT-4	>45.73 µM
CN(C)C1=NS(=O)(=O)NC(Cc2ccc3ccccc3c2)=C1	MT-4	>268 µM
Cc1cc(C#N)cc(C)c1Oc1ncc(NC(=O)C(F)(F)F)c(Nc2ccc(C#N)cc2)n1	MT-4	>276 µM
NC(=O)c1ccc(NC2=NS(=O)(=O)NC(Cc3ccc4ccccc4c3)=C2)cc1	MT-4	>245 µM
O=C(CSc1sc(Cl)nc1-c1ccc(Br)cc1Br)Nc1cccnc1Cl	MT-4	>23.24 µM
COc1cc(NC2=NS(=O)(=O)NC(Cc3ccccc3)=C2)cc(OC)c1OC	MT-4	>310 µM
Cc1ccccc1NC(=O)CSc1sc(Cl)nc1-c1ccc(Br)cc1Br	MT-4	>26.94 µM
N#Cc1ccc(Nc2nc(Oc3c(Br)cc(Br)cc3Br)ncc2[N+](=O)[O-])cc1	MT-4	>20.4 µM
Nc1nc(-c2ccc(Br)cc2Br)c(SCC(=O)Nc2ccc(Cl)cc2Cl)s1	MT-4	>20.73 µM
CCN(C)C1=NS(=O)(=O)NC(Cc2ccc3ccccc3c2)=C1	MT-4	>195 µM
Nc1nc(-c2ccc(Br)cc2Br)c(SCC(=O)Nc2ccccc2F)s1	MT-4	>24.94 µM
Cc1cc(C)c(NC2=NS(=O)(=O)NC(Cc3ccccc3)=C2)c(C)c1	MT-4	>191 µM
Cc1cc(N[C@H](C)c2cccc3ccccc23)c(C(=O)C(Cl)Cl)c(=O)o1	CEM	>10 µM
Cc1cc(C=O)cc(C)c1Oc1ncc(N)c(Nc2ccc(C#N)cc2)n1	MT-4	≥34.5 µM
CN(C)c1ccc(NC2=NS(=O)(=O)NC(Cc3ccc4ccccc4c3)=C2)cc1	MT-4	>33 µM
Cc1cc(S(=O)(=O)CCc2cccc3ccccc23)cc(=O)o1	CEM	>2 µM
O=S1(=O)NC(Cc2ccc3ccccc3c2)=CC(=NC2CC2)N1	MT-4	>218 µM
Cc1cc(NCCc2c[nH]c3ccccc23)cc(=O)o1	CEM	≥50 µM
CC(=O)Nc1cnc(Oc2c(Cl)cc(Cl)cc2Cl)nc1Nc1ccc(C#N)cc1	MT-4	>33.16 µM
CCc1c(SCc2cccc3ccccc23)cc(C)oc1=O	CEM	>10 µM
CC(=O)Nc1cnc(Oc2c(C)cc(C=O)cc2C)nc1Nc1ccc(C#N)cc1	MT-4	>237 µM

Repeating the final 2 entries:

{"structure": "CCc1c(SCc2cccc3ccccc23)cc(C)oc1=O", "cell line": "CEM", "result": ">10 µM"}
{"structure": "CC(=O)Nc1cnc(Oc2c(C)cc(C=O)cc2C)nc1Nc1ccc(C#N)cc1", "cell line": "MT-4", "result": ">237 µM"}

ECn: concentration that inhibits the pathogen or its effect by n%.